Measured values from several laboratories, pooled; numbers as filed in NIAID ChemDB.

All rows: cytotoxicity tests; cells: PBMC; measure: CC50

a–b is a range or a potency band. CCn: concentration that lowers growth or viability of the cells by n%. Conditions beyond the fields shown may differ between rows.

CC(C)C(Cc1ccccc1)NC(=O)C[C@@H]1O[C@@H]1[C@H](Cc1ccccc1)NC(=O)[C@@H](NC(=O)c1cccs1)C(C)(C)S(C)(=O)=O ; value: >10 µM
CN1CCN(c2nc(-c3cccs3)cc(-c3cc4ccccc4s3)n2)CC1 ; value: 100 µM
Cc1ccc(S(=O)(=O)N(CC(C)C)C[C@@H]2O[C@@H]2[C@H](Cc2ccccc2)NC(=O)C(CC(N)=O)NC(=O)c2ccc3ccccc3n2)cc1 ; value: >10 µM
c1coc(-c2nnc3c4ccccc4c(N4CCc5ccccc5C4)nn23)c1 ; value: 0.78 µM
CC(C)C(Cc1ccccc1)NC(=O)C[C@@H]1O[C@@H]1[C@H](Cc1ccccc1)NC(=O)[C@@H](NC(=O)NCc1ccco1)C(C)(C)S(C)(=O)=O ; value: >10 µM
CN(CCc1ccc2c(n1)NCCC2)C(=O)Nc1ccc(Cl)c(Cl)c1 ; value: 7.2 µM
Nc1ncnc2c1ncn2C1OC(CO)C=C1F ; value: >100 µM
CC(C)(C)C(=O)OCOP(=O)(CC[C@H]1O[C@@H](n2cnc3c(=O)[nH]c(N)nc32)[C@](C)(F)[C@@H]1O)OCOC(=O)C(C)(C)C ; value: >100 µM
CN(C)CCNc1nc(-c2ccc(SCCN(C)C)cc2)cc(-c2cccs2)n1 ; value: 10 µM
CN(C)CCSc1nccc(-c2ccc(-c3ccnc(SCCN(C)C)n3)s2)n1 ; value: 10 µM
Cc1nc2ccccc2c(-c2ccc(Cl)cc2)c1[C@H](OC(C)(C)C)C(=O)O ; value: 136 µM
O=[N+]([O-])c1ccc2c(c1)CN(c1nn3c(C4CC4)nnc3c3ccccc13)CC2 ; value: 23.8–29.4 µM
CC(C)CCC[C@@H](C)[C@H]1CCC2C3CCC4C[C@@H](O[C@@H]5O[C@H](COS(=O)(=O)[O-])[C@@H](O[C@H]6O[C@H](COS(=O)(=O)[O-])[C@@H](O[C@H]7O[C@H](COS(=O)(=O)[O-])[C@@H](O[C@H]8O[C@H](COS(=O)(=O)[O-])[C@@H](OS(=O)(=O)[O-])[C@H](OS(=O)(=O)[O-])[C@H]8OS(=O)(=O)[O-])[C@H](OS(=O)(=O)[O-])[C@H]7OS(=O)(=O)[O-])[C@H](OS(=O)(=O)[O-])[C@H]6OS(=O)(=O)[O-])[C@H](OS(=O)(=O)[O-])[C@H]5OS(=O)(=O)[O-])CC[C@]4(C)C3CC[C@@]21C ; value: 650 µg/mL
COc1ccc2c(c1)CN(c1nn3c(C)nnc3c3ccccc13)CC2 ; value: 0.97 µM
O=C(NCCc1ccc2c(n1)NCCC2)Nc1cccc(-c2ccc(Cl)cc2)n1 ; value: 50 µM
Nc1nccc2c1ncn2[C@@H]1C[C@H](CO)[C@@H](O)[C@H]1O ; value: 9.85 µM
NCCNc1nc(-c2ccco2)cc(-c2cc3ccccc3s2)n1 ; value: 10 µM
CN1CCN(CCSc2nccc(-c3cccs3)n2)CC1 ; value: 100 µM
c1ccc2c(c1)CCN(c1nn3c(-c4ccsc4)nnc3c3ccccc13)C2 ; value: 38.8 µM
CN(C)Cc1ccc(-c2cccc(-c3ccc(CN(C)C)cc3)n2)cc1 ; value: 100 µM
Cc1nnc2c3ccccc3c(N3CCc4c(F)cccc4C3)nn12 ; value: 54.2 µM
CN(C)CCSc1cccc(-c2cc(-c3cccc(SCCN(C)C)c3)ncn2)c1 ; value: 10 µM
O=C(NCCc1ccc2c(n1)NCCC2)Nc1cccc(-c2ccccc2Cl)n1 ; value: 4.8 µM
CN(C)CCCN=C(N)c1ccc(C(N)=NCCCN(C)C)cc1 ; value: >111 µM
Cc1c(-c2cccc(SCCN(C)C)c2)ncnc1-c1cccc(SCCN(C)C)c1 ; value: 10 µM
CN1CCN(CCSc2nccc(-c3ccc(-c4cccs4)s3)n2)CC1 ; value: 100 µM
O=[N+]([O-])c1ccc2c(c1)CN(c1nn3c(C(F)F)nnc3c3ccccc13)CC2 ; value: 23.8–29.4 µM
CN(C)CCNc1nc(-c2cccs2)cc(-c2cc3ccccc3s2)n1 ; value: 10 µM
Cc1nnc2c3ccccc3c(N3CCc4ccc(C(=O)O)cc4C3)nn12 ; value: 54 µM
CC(C)(C)C(=O)OCOP(=O)(CC[C@H]1O[C@@H](n2ccc(N)nc2=O)[C@](C)(F)[C@@H]1O)OCOC(=O)C(C)(C)C ; value: >100 µM
CC(C)C(Cc1ccccc1)NC(=O)C[C@@H]1O[C@@H]1[C@H](Cc1ccccc1)NC(=O)[C@@H](NC(=O)NCc1ccccc1)C(C)(C)S(C)(=O)=O ; value: >10 µM
Nc1nccc2c1ncn2[C@@H]1C=C(CO)[C@@H](O)[C@H]1O ; value: 8.29 µM
CN(C)CCNc1nc(-c2cccc(SCCN(C)C)c2)cc(-c2cccs2)n1 ; value: 10 µM
Nc1cnc2c(c1)CN(c1nn3c(C4CC4)nnc3c3ccccc13)CC2 ; value: 100 µM

For reference, 4 entries again:

SMILES,value
CN(C)CCNc1nc(-c2ccc(SCCN(C)C)cc2)cc(-c2cccs2)n1,10 µM
CN1CCN(c2nc(-c3cccs3)cc(-c3cc4ccccc4s3)n2)CC1,100 µM
CC(C)C(Cc1ccccc1)NC(=O)C[C@@H]1O[C@@H]1[C@H](Cc1ccccc1)NC(=O)[C@@H](NC(=O)c1cccs1)C(C)(C)S(C)(=O)=O,>10 µM
CN(CCc1ccc2c(n1)NCCC2)C(=O)Nc1ccc(Cl)c(Cl)c1,7.2 µM